Results reported in patent publication US20240122867A1, “CORONAL PROTEIN-COATED NANOPARTICLES AND USES THEREOF” (UNIVERSITY OF CENTRAL FLORIDA RESEARCH FOUNDATION, INC., priority 2021, published 2024).

B1: Leukemia inhibitory factor receptor (protein, UniProt P42703 44-1092, looked up)
Leukemia inhibitory factor …: LKRGVQDLKCTTNNMRVWDCTWPAPLGVSPGTVKDICIKDRFHSCHPLETTNVKIPALSPGDHEVTINYLNGFQSKFTLNEKDVSLIPETPEILDLSADFFTSSLLLKWNDRGSALPHPSNATWEIKVLQNPRTEPVALVLLNTMLSGKDTVQHWNWTSDLPLQCATHSVSIRWHIDSPHFSGYKEWSDWSPLKNISWIRNTETNVFPQDKVVLAGSNMTICCMSPTKVLSGQIGNTLRPLIHLYGQTVAIHILNIPVSENSGTNIIFITDDDVYGTVVFAGYPPDVPQKLSCETHDLKEIICSWNPGRITGLVGPRNTEYTLFESISGKSAVFHRIEGLTNETYRLGVQMHPGQEIHNFTLTGRNPLGQAQSAVVINVTERVAPHDPTSLKVKDINSTVVTFSWYLPGNFTKINLLCQIEICKANSKKEVRNATIRGAEDSTYHVAVDKLNPYTAYTFRVRCSSKTFWKWSRWSDEKRHLTTEATPSKGPDTWREWSSDGKNLIVYWKPLPINEANGKILSYNVSCSLNEETQSVLEIFDPQHRAEIQLSKNDYIISVVARNSAGSSPPSKIASMEIPNDDITVEQAVGLGNRIFLTWRHDPNMTCDYVIKWCNSSRSEPCLLDWRKVPSNSTETVIESDQFQPGVRYNFYLYGCTNQGYQLLRSIIGYVEELAPIVAPNFTVEDTSADSILVKWDDIPVEELRGFLRGYLFYFQKGERDTPKTRSLEPHHSDIKLKNITDISQKTLRIADLQGKTSYHLVLRAYTHGGLGPEKSMFVVTKENSVGLIIAILIPVAVAVIVGVVTSILCYRKREWIKETFYPDIPNPENCKALQFQKSVCEGSNALKTLEMNPCTPNNVEVLESRSIVPKIEDTEIISPVAERPGERSEVDPENHVVVSYCPPIIEEEITNPAADEVGGASQVVYIDVQSMYQPQAKAEEEQDVDPVVVAGYKPQMRLPISPAVEDTAAEDEEGKTAGYRPQANVNTWNLVSPDSPRSTDSNNEVVSFGSPCSINSRQFLIPPKDEDSPKSNGGGWSFTNFFQNKPND
B2: Platelet glycoprotein Ib alpha chain (protein, UniProt O35930 17-734, looked up)
Platelet glycoprotein Ib …: QHTCSISKVTSLLEVNCENKKLTALPADLPADTGILHLGENQLGTFSTASLVHFTHLTYLYLDRCELTSLQTNGKLIKLENLDLSHNNLKSLPSLGWALPALTTLDVSFNKLGSLSPGVLDGLSQLQELYLQNNDLKSLPPGLLLPTTKLKKLNLANNKLRELPSGLLDGLEDLDTLYLQRNWLRTIPKGFFGTLLLPFVFLHANSWYCDCEILYFRHWLQENANNVYLWKQGVDVKDTTPNVASVRCANLDNAPVYSYPGKGCPTSSGDTDYDDYDDIPDVPATRTEVKFSTNTKVHTTHWSLLAAAPSTSQDSQMISLPPTHKPTKKQSTFIHTQSPGFTTLPETMESNPTFYSLKLNTVLIPSPTTLEPTSTQATPEPNIQPMLTTSTLTTPEHSTTPVPTTTILTTPEHSTIPVPTTAILTTPKPSTIPVPTTATLTTLEPSTTPVPTTATLTTPEPSTTLVPTTATLTTPEHSTTPVPTTATLTTPEHSTTPVPTTATLTTPEPSTTLTNLVSTISPVLTTTLTTPESTPIETILEQFFTTELTLLPTLESTTTIIPEQNSFLNLPEVALVSSDTSESSPFLNSDFCCFLPLGFYVLGLLWLLFASVVLILLLTWTWHVTPHSLDMEQSAALATSTHTTSLEVQRARQVTMPRAWLLFLQGSLPTFRSSLFLWVRPNGRVGPLVAGRRPSALSQGRGQDLLGTVGIRYSGHSL
B3: Hepatocyte growth factor-like protein (protein, UniProt P26928 19-716, looked up)
Hepatocyte growth factor-like …: QRSPLNDFQLFRGTELRNLLHTAVPGPWQEDVADAEECARRCGPLLDCRAFHYNMSSHGCQLLPWTQHSLHTQLYHSSLCHLFQKKDYVRTCIMDNGVSYRGTVARTAGGLPCQAWSRRFPNDHKYTPTPKNGLEENFCRNPDGDPRGPWCYTTNRSVRFQSCGIKTCREAVCVLCNGEDYRGEVDVTESGRECQRWDLQHPHSHPFQPEKFLDKDLKDNYCRNPDGSERPWCYTTDPNVEREFCDLPSCGPNLPPTVKGSKSQRRNKGKALNCFRGKGEDYRGTTNTTSAGVPCQRWDAQSPHQHRFVPEKYACKDLRENFCRNPDGSEAPWCFTSRPGLRMAFCHQIPRCTEELVPEGCYHGSGEQYRGSVSKTRKGVQCQHWSSETPHKPQFTPTSAPQAGLEANFCRNPDGDSHGPWCYTLDPDILFDYCALQRCDDDQPPSILDPPDQVVFEKCGKRVDKSNKLRVVGGHPGNSPWTVSLRNRQGQHFCGGSLVKEQWVLTARQCIWSCHEPLTGYEVWLGTINQNPQPGEANLQRVPVAKAVCGPAGSQLVLLKLERPVILNHHVALICLPPEQYVVPPGTKCEIAGWGESIGTSNNTVLHVASMNVISNQECNTKYRGHIQESEICTQGLVVPVGACEGDYGGPLACYTHDCWVLQGLIIPNRVCARPRWPAIFTRVSVFVDWINKVMQLE
B4: Nuclear receptor subfamily 1 group D member 2 (protein, UniProt Q60674 1-576, looked up)
Nuclear receptor subfamily 1 …: MELNAGGVIAYISSSSSASSPASCHSEGSENSFQSSSSSVPSSPNSSNCDANGNPKNADISSIDGVLKSDRTDCPVKTGKTSAPGMTKSHSGMTKFSGMVLLCKVCGDVASGFHYGVHACEGCKGFFRRSIQQNIQYKKCLKNENCSIMRMNRNRCQQCRFKKCLSVGMSRDAVRFGRIPKREKQRMLIEMQSAMKTMMNTQFSGHLQNDTLAEQHDQSALPAQEQLRPKSQLEQENIKNTPSDFAKEEVIGMVTRAHKDTFLYNQEHRENSSESMPPQRGERIPRNMEQYNLNQDHRGSGIHNHFPCSERQQHLSGQYKGRNIMHYPNGHAVCIANGHCMNFSSAYTQRVCDRIPVGGCSQTENRNSYLCNTGGRMHLVCPMSKSPYVDPQKSGHEIWEEFSMSFTPAVKEVVEFAKRIPGFRDLSQHDQVNLLKAGTFEVLMVRFASLFDAKERTVTFLSGKKYSVDDLHSMGAGDLLSSMFEFSEKLNALQLSDEEMSLFTAVVLVSADRSGIENVNSVEALQETLIRALRTLIMKNHPNEASIFTKLLLKLPDLRSLNNMHSEELLAFKVHP
B5: Alpha-1-antitrypsin 1-4 (protein, UniProt Q00897 25-413, looked up)
Alpha-1-antitrypsin 1-4: EDVQETDTSQKDQSPASHEIATNLGDFALRLYRELVHQSNTSNIFFSPVSIATAFAMLSLGSKGDTHTQILEGLQFNLTQTSEADIHKSFQHLLQTLNRPDSELQLSTGNGLFVNNDLKLVEKFLEEAKNHYQAEVFSVNFAESEEAKKVINDFVEKGTQGKIVEAVKKLDQDTVFALANYILFKGKWKQPFDPENTEEAEFHVDESTTVKVPMMTLSGMLDVHHCSMLSSWVLLMDYAGNTTAVFLLPDDGKMQHLEQTLNKELISQFLLNRRRSDAQIHIPRLSISGNYNLKTLMSPLGITRIFNNGADLSGITEENAPLKLSKAVHKAVLTIDETGTEAAAATVLQVATYSMPPIVRFDHPFLFIIFEEHTQSPIFVGKVVDPTHK
B6: Lysozyme C-2 (protein, UniProt P08905 19-148, looked up)
Lysozyme C-2: KVYERCEFARTLKRNGMAGYYGVSLADWVCLAQHESNYNTRATNYNRGDQSTDYGIFQINSRYWCNDGKTPRAVNACGINCSALLQDDITAAIQCAKRVVRDPQGIRAWVAWRAHCQNRDLSQYIRNCGV
B7: Vitamin K-dependent protein C (protein, UniProt P33587 42-460, looked up)
Vitamin K-dependent protein C: ANSFLEEMRPGSLERECMEEICDFEEAQEIFQNVEDTLAFWIKYFDGDQCSAPPLDHQCDSPCCGHGTCIDGIGSFSCSCDKGWEGKFCQQELRFQDCRVNNGGCLHYCLEESNGRRCACAPGYELADDHMRCKSTVNFPCGKLGRWIEKKRKILKRDTDLEDELEPDPRIVNGTLTKQGDSPWQAILLDSKKKLACGGVLIHTSWVLTAAHCVEGTKKLTVRLGEYDLRRRDHWELDLDIKEILVHPNYTRSSSDNDIALLRLAQPATLSKTIVPICLPNNGLAQELTQAGQETVVTGWGYQSDRIKDGRRNRTFILTFIRIPLVARNECVEVMKNVVSENMLCAGIIGDTRDACDGDSGGPMVVFFRGTWFLVGLVSWGEGCGHTNNYGIYTKVGSYLKWIHSYIGEKGVSLKSQKL
B8: Triosephosphate isomerase (protein, UniProt P17751 2-249, looked up)
Triosephosphate isomerase: APTRKFFVGGNWKMNGRKKCLGELICTLNAANVPAGTEVVCAPPTAYIDFARQKLDPKIAVAAQNCYKVTNGAFTGEISPGMIKDLGATWVVLGHSERRHVFGESDELIGQKVSHALAEGLGVIACIGEKLDEREAGITEKVVFEQTKVIADNVKDWSKVVLAYEPVWAIGTGKTATPQQAQEVHEKLRGWLKSNVNDGVAQSTRIIYGGSVTGATCKELASQPDVDGFLVGGASLKPEFVDIINAKQ

Each molecule was assayed on coronal proteins on NPs. Conditions: HBPE-NPs incubated 1 h with IAV day 5 (V5) mouse sera, 20:1 NP:sera, centrifuged and washed.
Design: species or system mouse

| Molecule | V5 Sera_Nanoparticles Quantitative Value (Normalized Total Spectra) |
| --- | --- |
| B1 | 1.0879 |
| B2 | 1.0879 |
| B3 | 1.0879 |
| B4 | 1.0879 |
| B5 | 40.253 |
| B6 | 1.0879 |
| B7 | 1.0879 |
| B8 | 1.0879 |

Same assay, conditions: IAV day 5 (V5) mouse sera alone, no NPs (sera-only control)

| Molecule | V5 Sera Alone (Control) Quantitative Value (Normalized Total Spectra) |
| --- | --- |
| B1 | 0.9252 |
| B2 | 0 |
| B3 | 0 |
| B4 | 0 |
| B5 | 60.14 |
| B6 | 0 |
| B7 | 0 |
| B8 | 0.9252 |
